Anti-infective test results gathered from many reports (values: NIAID ChemDB through PubChem).

Shared fields: tests on isolated targets; species: HIV-1; target: Reverse transcriptase; read-out: IC50

ICn is the concentration giving n% inhibition. An empty or dashed field is not shown. Lines come from different laboratories, so protocols vary. Two numbers with a dash give a range or band.

| smiles | mutations | read by | strain | result |
|---|---|---|---|---|
| NS(=O)(=O)c1ccc(NC(=O)COc2cccnc2-c2cccc3ccccc23)cc1 |  | RT activity / ELISA / absorbance |  | >277 µM |
| CC(C)Nc1cccnc1N(C)N1CCN(C(=O)c2cc3ccccc3[nH]2)CC1 |  | nucleotide incorporation |  | <100 µM |
| O=C(COc1cccnc1-c1cccc2ccccc12)Nc1cccnc1Cl |  | RT activity / ELISA / absorbance |  | 87.3 µM |
| O=C(CSc1nnnn1-c1ccc(C2CC2)cc1Cl)Nc1ccc(C#CC2(CN3CCCC3)CC2)cc1Cl | RT-K103 Y181C | PicoGreen / fluorescence |  | <1 µM |
| CC(C)Nc1cccnc1N(C)CCCCCCN(C)C(=O)c1cc2ccccc2[nH]1 |  | nucleotide incorporation |  | <100 µM |
| CC(C)(C)c1ccc(-n2nnnc2SCC(=O)Nc2ccc(C#CCCCOC(N)=O)cc2Cl)c(Cl)c1 |  | PicoGreen / fluorescence | WT | <1 µM |
| CCN1c2ncc(CCOc3ccc(-c4ccn(CC(=O)O)n4)cc3)cc2C(=O)N(C)c2cccnc21 |  | nucleotide incorporation / radiometric | IIIB | <0.05 µM |
| O=C1CSC(c2c(F)cccc2F)N1c1nc(-c2ccccc2)cc(-c2ccccc2)n1 |  | absorbance |  | >100 µg/mL |
| CCN1c2ncc(CCOc3ccc(/C=C/C(=O)O)c4ccccc34)cc2C(=O)Nc2c(C)ccnc21 | RT-Y188L | nucleotide incorporation / radiometric |  | >1 µM |
| O=S(=O)(c1ccc(Cl)cc1)c1c[nH]c2ccccc12 | K103N | RT activity |  | >100 µM |
| CC(C)NS(=O)(=O)c1ccc(NC(=O)CSc2nnnn2-c2ccc(C(C)(C)C)cc2Cl)c(Cl)c1 | RT-K103 Y181C | PicoGreen / fluorescence |  | <1 µM |
| O=C(O)c1cc(O)c2c(c1)C(=O)c1cccc(O)c1C2=O |  | RNase H / radiometric |  | 60 µM |
| Cc1[nH]c2ccccc2c1S(=O)(=O)c1ccc(Cl)cc1 | K103N | RT activity |  | >100 µM |
| CC(C)(C)c1ccc(-n2nnnc2SCC(=O)Nc2ccc(C(=O)Nc3cccc(C(=O)O)c3)cc2Cl)c(Cl)c1 | RT-K103 Y181C | PicoGreen / fluorescence |  | <1 µM |
| CCN1c2ncc(CCOc3ccc(C(=O)O)c4c3CCC4)cc2C(=O)N(C)c2cccnc21 | RT-Y188L | nucleotide incorporation / radiometric |  | >1 µM |
| CCc1cc(CCc2nc3ccccc3o2)c(=O)[nH]c1C | RT-Y181I | nucleotide incorporation |  | >296.4 µM |
| COc1c(C(=O)c2c[nH]c(-c3nc4ccccc4[nH]3)c2)c(O)c(OC)c2occc12 |  | scintillation proximity / radiometric |  | 34.12 µM |
| Cc1cc(C)cc(S(=O)(=O)n2cc(-c3cccc([N+](=O)[O-])c3)c3ccccc32)c1 | K103N | RT activity |  | 44 µM |
| Cc1cc(C(F)(F)F)cc(-n2nnnc2SCC(=O)Nc2ccc(C#CC(C)(C)C(=O)O)cc2Cl)c1Cl |  | PicoGreen / fluorescence | WT | <1 µM |
| CCCCCCCCCOc1cccc(C(=O)Nc2c(O)c3ccc(O[C@@H]4OC(C)(C)[C@H](CO)[C@@H](OC(N)=O)[C@H]4O)c(C)c3oc2=O)c1 |  | radiometric |  | 40 µM |
| CC(C)(C#Cc1ccc(NC(=O)CSc2nnnn2-c2ccc(C(C)(C)C)cc2Cl)c(Cl)c1F)C(=O)O | RT-K103 Y181C | PicoGreen / fluorescence |  | <1 µM |
| C=CS(=O)(=O)N1CCCC(NS(=O)(=O)c2c(C(N)=O)[nH]c3ccc(Br)cc23)C1 | Y181C | RT activity / radiometric | BH10 | 75.2 µM |
| C#CCCC(=O)Nc1ccc(NC(=O)CSc2nnnn2-c2ccc(C(C)(C)C)cc2Cl)c(Cl)c1 |  | PicoGreen / fluorescence | WT | <1 µM |
| CCN1c2ncc(CCOc3ccc(-c4ccc(N)c(C(=O)O)c4)cc3C)cc2C(=O)N(C)c2cccnc21 |  | nucleotide incorporation / radiometric | IIIB | <0.05 µM |
| CC(C)(C)c1ccc(-n2nnnc2SCC(=O)Nc2ccc(-c3ccc(OCCN4CC[C@H](O)C4)cc3)cc2Cl)c(Cl)c1 |  | PicoGreen / fluorescence | WT | <1 µM |
| CCN1c2ncc(CCOc3ccc(-c4cc(Cl)c(C(=O)O)cc4F)cc3C)cc2C(=O)N(C)c2cccnc21 |  | nucleotide incorporation / radiometric | IIIB | <0.05 µM |
| Cc1ccc(-n2nnnc2SCC(=O)Nc2ccc(-c3ccc(S(N)(=O)=O)cc3)cc2[N+](=O)[O-])c(Cl)c1 | RT-K103 Y181C | PicoGreen / fluorescence |  | <1 µM |
| Cc1cc(C(F)(F)F)nc(N2C(=O)CSC2c2c(Cl)cccc2Cl)n1 |  | absorbance |  | >100 µg/mL |
| CC(=O)NNC(=O)COC(C)(C)C#Cc1ccc(NC(=O)CSc2nnnn2-c2ccc(C(C)(C)C)cc2Cl)c(Cl)c1 |  | PicoGreen / fluorescence | WT | <1 µM |
| COc1cc2c(cc1[N+](=O)[O-])CN(c1nn3c(C4CC4)nnc3c3ccccc13)CC2 |  | RT activity / fluorescence | KER2008 | 26.9 µM |
| CC(C)=CCOc1cc(NC(=S)c2ccoc2C)ccc1Cl | RT-Y181I |  |  | 9.5 µM |
| Cc1ccc2[nH]c(C(=O)N3CCN(c4ncccc4NC(C)C)CC3)cc2c1 |  | nucleotide incorporation |  | <100 µM |
| CCOCn1c(Cc2ccccc2)c(C(C)C)c(=O)[nH]c1=O |  | radiometric |  | 0.122 µM |
| CC(C)(C)c1ccc(-n2nnnc2SCC(=O)Nc2ccc(C(=O)NCCc3ccc(O)cc3)cc2Cl)c(Cl)c1 |  | PicoGreen / fluorescence | WT | <1 µM |
| CC(C)=CCN1Cc2cccc3[nH]c(=S)n(c23)C[C@@H]1C | RT-Y188L | nucleotide incorporation |  | >330 µM |
| CC(C)(C)c1ccc(-n2nnnc2SCC(=O)Nc2ccc(C#CC3(O)CCC3)cc2Cl)c(Cl)c1 |  | PicoGreen / fluorescence | WT | <1 µM |
| FC(F)(F)c1nnc2c3ccccc3c(N3CCc4ccccc4C3)nn12 |  | RT activity / fluorescence | KER2008 | 0.54 µM |
| O=C(O)c1cc(O)c2c(c1)[C@@H]([C@H]1c3cc(C(=O)O)cc(O)c3C(=O)c3c(O[C@@H]4O[C@H](CO)[C@@H](O)[C@H](O)[C@H]4O)cccc31)c1cccc(O[C@@H]3O[C@H](CO)[C@@H](O)[C@H](O)[C@H]3O)c1C2=O | N474A | RNase H / radiometric |  | 10.8 µM |
| CC(C)=CCN1Cc2cccc3[nH]c(=S)n(c23)C[C@@H]1C |  | radiometric | D34 | 4.9 µM |
| Fc1ccc2c(c1)CCN(c1nn3c(C4CC4)nnc3c3ccccc13)C2 |  | RT activity / fluorescence | IIIB | 1.28 µM |
| CCCCCCCCCCCCCc1cccc(O)c1 |  | RT activity / RNase H |  | >200 µM |
| COc1ccc2c(c1)N(C(=O)OC(C)C)[C@@H](CSC)C(=S)N2 | RT-W229F | radiometric |  | 0.0162 µM |
| CCN1c2ncc(CCOc3ccc(/C=C(\C)C(=O)O)c4ccccc34)cc2C(=O)N(C)c2ccc(C)nc21 | RT-Y188L | nucleotide incorporation / radiometric |  | >1 µM |
| C=CCOc1cc(NC(=S)c2ccsc2C)ccc1Cl |  | radiometric |  | 2.531 µM |
| CCN1c2ncc(CCOc3ccc(C(=O)O)c4ccccc34)cc2C(=O)N(C)c2ccc(C)nc21 |  | nucleotide incorporation / radiometric | WT | <0.1 µM |
| Cc1sccc1C(=S)Nc1ccc(Cl)c(OCC(C)(C)C)c1 |  | radiometric |  | 14.52 µM |
| CC(C)(C)c1ccc(-n2nnnc2SCC(=O)Nc2ccc(NC(=O)Cc3cccc([N+](=O)[O-])c3)cc2Cl)c(Cl)c1 | RT-K103 Y181C | PicoGreen / fluorescence |  | <1 µM |
| CCCCCC/C=C/CCCCCCCCCc1cccc(O)c1C(=O)O |  | RT activity / nucleotide incorporation |  | >100 µM |
| Cc1cc(S(N)(=O)=O)ccc1NC(=O)COc1ccccc1C(=O)c1cc(Cl)cc(C#N)c1 |  | fluorescence | WT | 0.0066 µM |
| CC[C@H]1C(=O)Nc2ccc(F)cc2N1C(=O)OC(C)C | RT-W229Y | radiometric |  | 0.19 µM |
| Cc1nnc2c3ccccc3c(N3Cc4ccccc4C(C)(C)C3)nn12 |  | RT activity / fluorescence | KER2008 | 24.5 µM |
| Cc1ccc(S(=O)(=O)c2c(-c3ccc(Cl)cc3)[nH]c3ccccc23)cc1 | WT | RT activity |  | 53 µM |
| CCN1c2ncc(CCOc3ccc4cc(CC(=O)O)ccc4c3)cc2C(=O)N(C)c2cccnc21 |  | nucleotide incorporation / radiometric | WT | <0.1 µM |
| CC(C)=CCOc1cc(NC(=S)c2ccsc2C)ccc1Cl | RT-L74V |  |  | 0.2 µM |
| Nc1nc2c(ncn2[C@H]2CC[C@@H](COP(=O)(O)OP(=O)(O)OP(=O)(O)O)O2)c(=O)[nH]1 | RT-W229F | radiometric |  | 0.68 µM |
| Cc1c(NC(=O)CSc2nnnn2-c2ccc(C3CC3)cc2Cl)ccc(C#CC(C)(C)NC(=O)c2cc[n+]([O-])cc2)c1F | RT-K103 Y181C | PicoGreen / fluorescence |  | <1 µM |
| CCN1c2ncc(CCOc3ccc(NS(C)(=O)=O)c4ccccc34)cc2C(=O)N(C)c2ccc(F)nc21 | RT-K103N Y181C | nucleotide incorporation / radiometric |  | <0.1 µM |
| Cc1cc(N2C(=O)CSC2c2c(F)cccc2Cl)nc(C)n1 |  | absorbance |  | ~100 µg/mL |
| Cc1cc(C)cc(S(=O)(=O)c2[nH]c3ccccc3c2-c2cccc([N+](=O)[O-])c2)c1 | Y181C | RT activity |  | 8 µM |
| CC(C)(C#Cc1ccc(NC(=O)CSc2nnnn2-c2ccc(C(C)(C)C)cc2Cl)c(Cl)c1)OCC(=O)NCCC(=O)O |  | PicoGreen / fluorescence | WT | <1 µM |
| CCN1c2ncc(CCOc3ccc(C(=O)Nc4ccc[n+]([O-])c4)cc3C)cc2C(=O)N(C)c2cccnc21 |  | nucleotide incorporation / radiometric | IIIB | <0.05 µM |
| CC(C)(C#Cc1ccc(NC(=O)CSc2nnnn2-c2ccc(C3CC3)cc2Cl)c(Cl)c1)C(=O)NS(=O)(=O)c1ccccc1 |  | PicoGreen / fluorescence | WT | <1 µM |
| CCC(C)Nc1cccnc1N1CCN(C(=O)c2cc3ccccc3[nH]2)CC1 |  | nucleotide incorporation |  | <100 µM |
| Nc1ccc2c(c1)CN(c1nn3c(C(F)F)nnc3c3ccccc13)CC2 |  | RT activity / fluorescence | KER2008 | 1.03 µM |
| O=C(CSc1nnnn1-c1ccc(C2CC2)cc1Cl)Nc1ccc(C#CCCN2CCCC2)cc1Cl |  | PicoGreen / fluorescence | WT | <1 µM |
| Cc1cc(N2C(=O)CSC2c2c(Cl)cccc2Cl)nc(C)n1 |  | absorbance |  | 10–100 µg/mL |
| CC(C)(C#Cc1ccc(NC(=O)CSc2nnnn2-c2ccc(C3CC3)cc2Cl)c(Cl)c1)OCCN1CCS(=O)(=O)CC1 |  | PicoGreen / fluorescence | WT | <1 µM |
| CCN1c2ncc(CCOc3ccc(CCC(=O)O)c4c3CCCC4)cc2C(=O)N(C)c2ccc(Cl)nc21 | RT-V106A | nucleotide incorporation / radiometric |  | >1 µM |
| COc1ccccc1CC(=O)Nc1ccc(NC(=O)CSc2nnnn2-c2ccc(C(C)(C)C)cc2Cl)c(Cl)c1 |  | PicoGreen / fluorescence | WT | <1 µM |
| c1ccc(-c2nnc3c4ccccc4c(N4CCc5ccccc5C4)nn23)cc1 |  | RT activity / fluorescence | KER2008 | 48.2 µM |
| CC(C)(C)c1ccc(-n2nnnc2SCC(=O)Nc2ccc(NC(=O)Cc3ccccc3O)cc2Cl)c(Cl)c1 |  | PicoGreen / fluorescence | WT | <1 µM |
| CCCCCCCCCCCCCCCc1cccc(O)c1 |  | RT activity / RNase H |  | >200 µM |